A mixed list of measured activities; the numbers were collected in NIAID ChemDB.

All rows: growth or infection tests; species: Aspergillus niger; read-out: MIC

Conditions beyond the fields shown may differ between rows.

{"compound": "CN(C)Cc1cccc(/C=N/NC(=O)c2ccncc2)c1N", "strain": "MTCC 8184", "result": "50 µg/mL"}
{"compound": "COc1ccc(/C=N/NC(=S)Nc2ccc(C(=O)O)cc2)cc1OC", "read by": "agar diffusion", "result": "1.29 µM"}
{"compound": "C[C@@H]1[C@H](O)[C@@H](C)/C=C/C=C/CC/C=C/C=C/C=C/C=C/C(O[C@H]2O[C@H](C)[C@@H](O)[C@H](N)[C@@H]2O)CC2O[C@](O)(CC(O)C(O)CCC(O)CC(O)CC(O)CC(=O)O[C@H]1C)CC(O)C2C(=O)O", "strain": "MTCC 8184", "result": "0.78 µg/mL"}
{"compound": "Oc1cccc2oc(-c3ccccc3)cc(=Nc3ccccc3N=c3cc(-c4ccccc4)oc4cccc(O)c34)c12", "read by": "agar diffusion", "result": "60 µg/mL"}
{"compound": "O=C(NO)c1ccc(NC(=S)N/N=C/c2ccccc2)cc1", "read by": "agar diffusion", "result": "1.45 µM"}
{"compound": "COc1cccc(COc2cccc3cccnc23)c1", "read by": "broth dilution", "result": "12.5 µg/mL"}
{"compound": "CCN(CC)Cc1cccc(/C=N/NC(=O)c2ccncc2)c1N", "strain": "MTCC 8184", "result": "12.5 µg/mL"}
{"compound": "N#[N+]c1nc(-c2cccc(Cl)c2)[nH]c1C(=O)N1CCCC1", "strain": "L32", "result": ">200 µg/mL"}
{"compound": "Oc1ccc(Cl)c2cccnc12", "strain": "ATCC 1004", "result": "2 µg/mL"}
{"compound": "O=c1c2ccccc2[se]n1C1C2CC3CC(C2)CC1C3", "read by": "agar", "result": "10 µg/mL"}
{"compound": "COc1ccc(-c2cc(-c3ccc4oc(=O)c(-c5ccccc5)c(C)c4c3)nc3c2oc2ccccc23)cc1", "strain": "MTCC 282", "read by": "broth dilution / turbidity", "result": "500 µg/mL"}
{"compound": "O=C(NC1CCCCC1)n1[se]c2ccccc2c1=O", "read by": "agar", "result": "162 µg/mL"}
{"compound": "COc1ccccc1N1CCN(CCCCN2C(=O)CCC(c3ccccc3)C2=O)CC1", "strain": "DSM 1988", "result": ">100 µM"}
{"compound": "O=C/C=C/c1ccccc1", "strain": "IOA-3", "read by": "broth dilution", "result": "80 µg/mL"}
{"compound": "Fc1ccc(COc2cccc3cccnc23)cc1", "read by": "broth dilution", "result": "12.5 µg/mL"}
{"compound": "O=C(NO)c1ccc(NC(=S)N/N=C/c2ccc(Cl)cc2)cc1", "read by": "agar diffusion", "result": "1.67 µM"}
{"compound": "c1ccc(COc2cccc3cccnc23)cc1", "read by": "broth dilution", "result": "12.5 µg/mL"}
{"compound": "Cc1c(-c2ccccc2)c(=O)oc2ccc(-c3cc(-c4ccccc4)c4c(n3)-c3ccccc3C4)cc12", "strain": "MTCC 282", "read by": "broth dilution / turbidity", "result": ">1000 µg/mL"}
{"compound": "Oc1cc(Cl)cc2cccnc12", "strain": "ATCC 1004", "result": "<1 µg/mL"}
{"compound": "CC(=Nc1cccc(Br)c1)c1cc(C(C)=Nc2cccc(Br)c2)c(O)cc1O", "strain": "MTCC 282", "read by": "broth dilution", "result": "100 µg/mL"}
{"compound": "Oc1cc(Br)cc2cccnc12", "strain": "ATCC 1004", "result": "2 µg/mL"}
{"compound": "CN(C/C=C/C#CC(C)(C)C)Cc1cccc2ccccc12", "read by": "broth dilution", "result": "12.5 µg/mL"}
{"compound": "O=C(Nc1ccccc1)n1[se]c2ccccc2c1=O", "read by": "agar", "result": "127 µg/mL"}
{"compound": "Cc1c(-c2ccccc2)c(=O)oc2ccc(-c3cc(-c4ccc(F)cc4)c4c(n3)-c3ccccc3C4)cc12", "strain": "MTCC 282", "read by": "broth dilution / turbidity", "result": "250 µg/mL"}
{"compound": "Oc1cccc2c(Cl)ccnc12", "strain": "ATCC 1004", "result": "4 µg/mL"}
{"compound": "COC(=O)[C@]1(C)CCC[C@]2(C)c3ccc(C(C)C)cc3-c3[nH]c4ccc([N+](=O)[O-])cc4c3C12", "strain": "CGMCC3.316", "result": ">100 µg/mL"}
{"compound": "O=C(NO)c1ccc(NC(=S)N/N=C/c2ccccc2O)cc1", "read by": "agar diffusion", "result": "1.75 µM"}
{"compound": "O=C1CCC(c2ccccc2)C(=O)N1CCCN1CCN(c2ccccn2)CC1", "strain": "DSM 1988", "result": ">100 µM"}
{"compound": "CC(C)c1nc([N+]#N)c(C(=O)N2CCCC2)[nH]1", "strain": "L32", "result": ">200 µg/mL"}
{"compound": "CCCCN(CCCC)Cc1cccc(/C=N/NC(=O)c2ccncc2)c1N", "strain": "MTCC 8184", "result": "12.5 µg/mL"}
{"compound": "N#[N+]c1nc(-c2ccc(F)cc2)[nH]c1C(=O)N1CCCC1", "strain": "L32", "result": "25 µg/mL"}
{"compound": "O=C1CCC(c2ccccc2)C(=O)N1CCCN1CCN(c2ccccc2O)CC1", "strain": "DSM 1988", "result": ">100 µM"}
{"compound": "Oc1c(Cl)ccc2cccnc12", "strain": "ATCC 1004", "result": "3 µg/mL"}
{"compound": "O=C(O)c1ccc(NC(=S)N/N=C/c2cccc([N+](=O)[O-])c2)cc1", "read by": "agar diffusion", "result": "1.47 µM"}
{"compound": "N#[N+]c1nc[nH]c1C(=O)N1CCCC1", "strain": "L32", "result": "200 µg/mL"}
{"compound": "CN1CCN(Cc2cccc(/C=N/NC(=O)c3ccncc3)c2N)CC1", "strain": "MTCC 8184", "result": "1.56 µg/mL"}
{"compound": "CCOC(Cn1[se]c2ccccc2c1=O)OCC", "read by": "agar", "result": "63 µg/mL"}
{"compound": "COC(=O)[C@]1(C)CCC[C@]2(C)c3ccc(C(C)C)cc3CCC12", "strain": "CGMCC3.316", "result": ">100 µg/mL"}
{"compound": "COC(OC)C(C)n1[se]c2ccccc2c1=O", "read by": "agar", "result": "300 µg/mL"}
{"compound": "COc1cccc(N=C(C)c2cc(C(C)=Nc3cccc(OC)c3)c(O)cc2O)c1", "strain": "MTCC 282", "read by": "broth dilution", "result": "250 µg/mL"}
{"compound": "COc1ccc(/C=N/NC(=S)Nc2ccc(C(=O)O)cc2)cc1", "read by": "agar diffusion", "result": "2.96 µM"}
{"compound": "O=C1CCC(c2ccccc2)C(=O)N1CCCCN1CCN(c2ccccc2O)CC1", "strain": "DSM 1988", "result": ">100 µM"}
{"compound": "COc1ccc(-c2cc(-c3ccc4oc(=O)c(-c5ccccc5)c(C)c4c3)nc3c2Cc2ccccc2-3)cc1", "strain": "MTCC 282", "read by": "broth dilution / turbidity", "result": ">1000 µg/mL"}
{"compound": "Nc1c(/C=N/NC(=O)c2ccncc2)cccc1CN1CCCCC1", "strain": "MTCC 8184", "result": "50 µg/mL"}
{"compound": "O=[N+]([O-])c1cccc(COc2cccc3cccnc23)c1", "read by": "broth dilution", "result": "25 µg/mL"}
{"compound": "CCCn1[se]c2ccccc2c1=O", "read by": "agar", "result": "15 µg/mL"}
{"compound": "COC(=O)[C@]1(C)CCC[C@]2(C)c3ccc(C(C)C)cc3-c3[nH]c4ccc(F)cc4c3C12", "strain": "CGMCC3.316", "result": ">100 µg/mL"}
{"compound": "Cn1[se]c2ccccc2c1=O", "read by": "agar", "result": "27 µg/mL"}
{"compound": "CCOc1ccc2[nH]c3c(c2c1)C1[C@](C)(C(=O)OC)CCC[C@]1(C)c1ccc(C(C)C)cc1-3", "strain": "CGMCC3.316", "result": ">100 µg/mL"}
{"compound": "N#[N+]c1nc(-c2ccc(F)cc2F)[nH]c1C(=O)N1CCCC1", "strain": "L32", "result": ">200 µg/mL"}
{"compound": "Cc1c(-c2ccccc2)c(=O)oc2ccc(-c3cc(-c4ccccc4)c4oc5ccccc5c4n3)cc12", "strain": "MTCC 282", "read by": "broth dilution / turbidity", "result": "500 µg/mL"}
{"compound": "N#[N+]c1nc(-c2ccccc2Cl)[nH]c1C(=O)N1CCCC1", "strain": "L32", "result": "50 µg/mL"}
{"compound": "Oc1cccc2cc(Br)cnc12", "strain": "ATCC 1004", "result": "9 µg/mL"}

3 of the rows above, restated:

{"compound": "CN1CCN(Cc2cccc(/C=N/NC(=O)c3ccncc3)c2N)CC1", "strain": "MTCC 8184", "result": "1.56 µg/mL"}
{"compound": "Oc1cc(Br)cc2cccnc12", "strain": "ATCC 1004", "result": "2 µg/mL"}
{"compound": "O=C(Nc1ccccc1)n1[se]c2ccccc2c1=O", "read by": "agar", "result": "127 µg/mL"}